Results published in US11773379B2, “Enzymes and reagents for measurement of short chain fatty acids” (SYSMEX CORPORATION, priority 2018, dated 2023).

Test system: BKII
Assay: Linearity test of butyric acid measurement using butyrate kinase
Type: biochemical, Acetoanaerobium sticklandii

## CCCC(=O)O [Butyric acid]
Butyric acid 0.156 mM
  Abs 340 nm: 0.0184
Butyric acid 0.313 mM
  Abs 340 nm: 0.0370
Butyric acid 0.625 mM
  Abs 340 nm: 0.0740
Butyric acid 1.250 mM
  Abs 340 nm: 0.1481
Butyric acid 2.500 mM
  Abs 340 nm: 0.2938
Butyric acid 5.000 mM
  Abs 340 nm: 0.5834
Butyric acid 10.000 mM
  Abs 340 nm: 1.1491
